# Source: patent US4740501A (priority 1985, dated 1988)
# Tested on: MMTV
# Experiment: MMTV production by MJY-alpha cells (radiolabel in purified virus)
# Type: cell-based, mouse
# Settings: 15 uM for 48 hours, washed; labeled day 5, 24 hours
smiles,measurement,value
"CCOC(=O)[C@H](CCSC)NC(=O)[C@H](Cc1cccc(N(CCCl)CCCl)c1)NC(=O)[C@@H](N)Cc1ccc(F)cc1.Cl [PTT.119, 3-(p-fluorophenyl)-L-alanyl-3-[m-bis(2-chloroethyl)aminophenyl]-L-alanyl-L-methionine ethyl ester hydrochloride]","MMTV production, % of control",50-55%
